Experimental data as given in the supplement of paper PMC3353916.

System: Sindbis virus TE/5'2J-GFP
Assay: percent infected (GFP+ in RFP+ ISG-expressing cells); higher = more infection (less antiviral activity)
Procedure: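 Confirmatory testing of 87 ISGs. Triplicate wells of BHK/HA-Zeo (control) or BHK/NZAP-Zeo (ZAP) cells were transduced with lentiviruses co-expressing a human ISG plus TagRFP, then infected 48 h later with SINV TE/5'2J-GFP (moi 5). The % GFP+ cells among RFP+ cells was measured by flow cytometry at 8 h post infection. Fluc lentivirus served as control. Three independent experiments.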
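Note: Interferon-defective BHK-21 derivatives, ZAP line overexpressing the rat ZAP N-terminal zinc finger domain fused to Zeocin resistance, GFP scored within live singlet TagRFP+ cells.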

MQRADSEQPSKRPRCDDSPRTPSNTPSAEADWSPGLELHPDYKTWGPEQVCSFLRRGGFEEPVLLKNIRENEITGALLPCLDESRFENLGVSSLGERKKLLSYIQRLVQIHVDTMKVINDPIHGHIELHPLLVRIIDTPQFQRLRYIKQLGGGYYVFPGASHNRFEHSLGVGYLAGCLVHALGEKQPELQISERDVLCVQIAGLCHDLGHGPFSHMFDGRFIPLARPEVKWTHEQGSVMMFEHLINSNGIKPVMEQYGLIPEEDICFIKEQIVGPLESPVEDSLWPYKGRPENKSFLYEIVSNKRNGIDVDKWDYFARDCHHLGIQNNFDYKRFIKFARVCEVDNELRICARDKEVGNLYDMFHTRNSLHRRAYQHKVGNIIDTMITDAFLKADDYIEITGAGGKKYRISTAIDDMEAYTKLTDNIFLEILYSTDPKLKDAREILKQIEYRNLFKYVGETQPTGQIKIKREDYESLPKEVASAKPKVLLDVKLKAEDFIVDVINMDYGMQEKNPIDHVSFYCKTAPNRAIRITKNQVSQLLPEKFAEQLIRVYCKKVDRKSLYAARQYFVQWCADRNFTKPQDGDVIAPLITPQKKEWNDSTSVQNPTRLREASKSRVQLFKDDPM [SAMHD1]
Conditions | percent infected [%]
experiment: confirmatory screen 1, BHK/HA-Zeo (control) | 78.5
experiment: confirmatory screen 1, BHK/NZAP-Zeo (ZAP) | 56.9
experiment: confirmatory screen 2, BHK/HA-Zeo (control) | 93.61
experiment: confirmatory screen 2, BHK/NZAP-Zeo (ZAP) | 93.88
experiment: confirmatory screen 3, BHK/HA-Zeo (control) | 91.54
experiment: confirmatory screen 3, BHK/NZAP-Zeo (ZAP) | 91.24
